Values quoted from earlier work, collected in patent publication US8633150B2, “Methods for inducing sustained immune response” (TNI Biotech, Inc., priority 2001, dated 2014).

Test system: CD4 and CD8 T-cell subsets in HIV positive patients
Settings: et al.

## interleukin-2 [IL2]
Davey, 2000
  toxicity accompanying use: major toxicity
Kovacs, 1996
  CD4 T-cell subset in HIV positive patients: elevating the CD4 T-cell subset
Schmitz, 1999
  CD8 T-cell count: increase CD8 T-cell count
